Reference: PMC3395435 (Biopolymers, 2012)

Chains of the proteins cited; added tags and fusions are not shown. Residues count along the entry.
UniProt Q00975, whole entry: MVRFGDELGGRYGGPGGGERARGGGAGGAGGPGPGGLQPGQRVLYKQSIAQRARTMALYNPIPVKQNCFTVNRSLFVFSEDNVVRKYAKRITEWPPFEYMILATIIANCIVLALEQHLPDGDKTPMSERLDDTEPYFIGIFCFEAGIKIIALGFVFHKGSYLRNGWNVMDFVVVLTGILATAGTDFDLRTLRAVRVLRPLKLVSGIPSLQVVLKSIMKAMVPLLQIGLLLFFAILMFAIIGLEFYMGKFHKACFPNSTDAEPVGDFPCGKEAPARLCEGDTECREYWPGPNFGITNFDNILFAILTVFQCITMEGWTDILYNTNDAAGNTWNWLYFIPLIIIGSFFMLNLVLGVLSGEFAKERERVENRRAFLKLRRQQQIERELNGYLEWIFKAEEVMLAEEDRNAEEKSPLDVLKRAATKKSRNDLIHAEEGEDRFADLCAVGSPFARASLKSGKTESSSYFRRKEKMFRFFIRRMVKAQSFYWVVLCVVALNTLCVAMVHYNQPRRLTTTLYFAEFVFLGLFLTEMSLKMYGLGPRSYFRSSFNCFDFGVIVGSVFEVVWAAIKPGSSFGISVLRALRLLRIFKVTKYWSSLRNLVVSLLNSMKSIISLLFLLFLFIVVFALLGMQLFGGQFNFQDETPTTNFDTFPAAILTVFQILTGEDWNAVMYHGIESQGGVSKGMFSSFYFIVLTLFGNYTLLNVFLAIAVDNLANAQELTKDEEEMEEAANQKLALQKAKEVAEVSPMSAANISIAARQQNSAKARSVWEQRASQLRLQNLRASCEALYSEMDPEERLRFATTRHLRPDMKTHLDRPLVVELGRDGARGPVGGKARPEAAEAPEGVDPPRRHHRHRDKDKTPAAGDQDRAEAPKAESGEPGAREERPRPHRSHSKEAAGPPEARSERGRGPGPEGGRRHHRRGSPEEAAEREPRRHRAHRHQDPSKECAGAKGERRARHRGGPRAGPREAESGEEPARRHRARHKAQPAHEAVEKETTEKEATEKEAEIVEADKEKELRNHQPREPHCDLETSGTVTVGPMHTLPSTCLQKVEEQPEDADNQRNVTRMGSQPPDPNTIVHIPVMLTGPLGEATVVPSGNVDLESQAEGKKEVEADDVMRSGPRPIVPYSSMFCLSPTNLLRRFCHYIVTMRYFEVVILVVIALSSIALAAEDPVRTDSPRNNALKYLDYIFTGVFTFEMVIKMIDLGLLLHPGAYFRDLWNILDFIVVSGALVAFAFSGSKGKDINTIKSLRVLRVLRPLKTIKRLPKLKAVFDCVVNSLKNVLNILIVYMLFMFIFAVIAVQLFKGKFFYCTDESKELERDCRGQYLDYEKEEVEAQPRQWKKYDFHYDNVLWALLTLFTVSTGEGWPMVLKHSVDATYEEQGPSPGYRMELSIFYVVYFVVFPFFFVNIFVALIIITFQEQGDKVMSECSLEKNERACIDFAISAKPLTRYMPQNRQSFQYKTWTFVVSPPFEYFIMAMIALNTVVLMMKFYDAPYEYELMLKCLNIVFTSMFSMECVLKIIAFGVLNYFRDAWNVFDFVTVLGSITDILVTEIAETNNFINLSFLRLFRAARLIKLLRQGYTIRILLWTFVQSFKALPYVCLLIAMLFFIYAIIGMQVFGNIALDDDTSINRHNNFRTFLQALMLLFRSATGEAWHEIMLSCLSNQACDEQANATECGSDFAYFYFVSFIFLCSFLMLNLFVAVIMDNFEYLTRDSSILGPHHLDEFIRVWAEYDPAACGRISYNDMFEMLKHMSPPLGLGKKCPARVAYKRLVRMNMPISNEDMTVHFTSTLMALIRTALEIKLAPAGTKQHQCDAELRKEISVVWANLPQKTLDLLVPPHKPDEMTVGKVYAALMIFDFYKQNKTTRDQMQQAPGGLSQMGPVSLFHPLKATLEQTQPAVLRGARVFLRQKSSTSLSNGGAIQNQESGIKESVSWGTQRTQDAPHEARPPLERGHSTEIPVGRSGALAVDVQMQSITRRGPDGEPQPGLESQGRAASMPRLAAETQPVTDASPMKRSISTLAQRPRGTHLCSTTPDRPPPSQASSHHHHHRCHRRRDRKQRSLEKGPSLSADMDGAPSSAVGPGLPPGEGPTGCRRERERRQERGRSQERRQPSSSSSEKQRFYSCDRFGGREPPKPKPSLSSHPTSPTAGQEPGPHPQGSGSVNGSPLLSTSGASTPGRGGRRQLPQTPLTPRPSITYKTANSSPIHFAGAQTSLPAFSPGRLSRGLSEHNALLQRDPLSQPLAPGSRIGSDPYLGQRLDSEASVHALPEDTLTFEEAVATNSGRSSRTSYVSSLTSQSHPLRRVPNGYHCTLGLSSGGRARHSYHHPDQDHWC
UniProt Q08289, whole entry partner: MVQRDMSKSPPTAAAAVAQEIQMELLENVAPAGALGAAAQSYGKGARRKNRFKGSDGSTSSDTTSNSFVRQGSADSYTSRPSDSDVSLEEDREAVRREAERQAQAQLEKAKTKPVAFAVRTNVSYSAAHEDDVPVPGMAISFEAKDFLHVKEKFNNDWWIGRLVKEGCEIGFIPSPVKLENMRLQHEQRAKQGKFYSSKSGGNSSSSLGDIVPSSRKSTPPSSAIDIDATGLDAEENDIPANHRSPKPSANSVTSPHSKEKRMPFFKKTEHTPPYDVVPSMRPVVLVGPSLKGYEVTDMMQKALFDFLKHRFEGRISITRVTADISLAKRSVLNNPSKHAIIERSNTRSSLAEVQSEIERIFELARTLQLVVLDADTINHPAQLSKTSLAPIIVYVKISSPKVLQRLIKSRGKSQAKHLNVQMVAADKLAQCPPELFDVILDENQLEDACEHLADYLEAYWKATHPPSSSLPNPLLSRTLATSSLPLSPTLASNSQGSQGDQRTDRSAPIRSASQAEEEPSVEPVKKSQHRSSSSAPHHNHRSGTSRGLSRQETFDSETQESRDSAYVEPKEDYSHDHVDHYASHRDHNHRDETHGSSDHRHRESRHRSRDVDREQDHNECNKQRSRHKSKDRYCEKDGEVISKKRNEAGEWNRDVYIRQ
UniProt P54289, 25-1103 partner limits assumed: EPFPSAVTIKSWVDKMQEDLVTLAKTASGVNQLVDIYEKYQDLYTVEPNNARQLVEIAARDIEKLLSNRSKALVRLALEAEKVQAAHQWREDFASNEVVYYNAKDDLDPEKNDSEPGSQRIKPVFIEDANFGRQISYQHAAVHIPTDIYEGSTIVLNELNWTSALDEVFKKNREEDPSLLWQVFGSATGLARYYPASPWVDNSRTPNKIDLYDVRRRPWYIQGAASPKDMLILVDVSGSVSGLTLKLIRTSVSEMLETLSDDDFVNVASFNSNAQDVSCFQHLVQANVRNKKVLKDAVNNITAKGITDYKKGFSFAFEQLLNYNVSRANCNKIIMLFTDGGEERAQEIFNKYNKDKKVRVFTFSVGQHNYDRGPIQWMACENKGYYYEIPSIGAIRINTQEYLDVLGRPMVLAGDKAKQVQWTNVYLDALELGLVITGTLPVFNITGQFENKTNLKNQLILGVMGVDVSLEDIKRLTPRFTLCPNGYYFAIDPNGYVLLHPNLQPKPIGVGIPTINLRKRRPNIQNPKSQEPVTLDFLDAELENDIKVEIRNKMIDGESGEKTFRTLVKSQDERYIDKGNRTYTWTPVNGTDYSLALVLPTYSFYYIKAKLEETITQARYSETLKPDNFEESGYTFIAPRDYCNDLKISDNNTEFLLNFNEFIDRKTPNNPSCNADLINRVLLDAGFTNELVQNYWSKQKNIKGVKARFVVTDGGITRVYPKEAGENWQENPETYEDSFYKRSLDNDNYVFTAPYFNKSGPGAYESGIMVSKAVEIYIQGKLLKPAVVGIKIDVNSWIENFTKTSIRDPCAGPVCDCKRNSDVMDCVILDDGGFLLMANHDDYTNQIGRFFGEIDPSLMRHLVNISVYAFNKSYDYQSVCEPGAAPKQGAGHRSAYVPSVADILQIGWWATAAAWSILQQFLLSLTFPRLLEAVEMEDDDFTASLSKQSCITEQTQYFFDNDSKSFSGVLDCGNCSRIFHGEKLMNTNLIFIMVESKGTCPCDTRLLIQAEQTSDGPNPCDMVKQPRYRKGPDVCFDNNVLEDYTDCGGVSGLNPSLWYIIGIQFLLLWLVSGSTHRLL

Biological target: N-type calcium channel (CaV2.2) (Homo sapiens, UniProt Q00975)
Format: cell-based

Substance: ω-conotoxin GVIA
- blocking time constant τ, GVIA versus Sec-GVIA: not statistically different
